Measured values from several laboratories, pooled; numbers as filed in NIAID ChemDB.

Shared fields: tests in culture; agent: Mycobacterium fortuitum; read-out: MIC

a–b is a range or a potency band. Rows are shuffled and stem from different studies.

{"smiles": "CCC(C)(C)c1ccc(/C=N/N=C(\\N)c2ccccn2)cc1", "strain": "NCTC 10394", "value": "6.3–12.5 µg/mL"}
{"smiles": "CCn1cc(C(=O)O)c(=O)c2ccc(-c3csc(N4CCCCC4)n3)cc21", "value": "3.12 µg/mL"}
{"smiles": "N/C(=N/N=C/c1ccccc1Br)c1ccccn1", "value": "256 µg/mL"}
{"smiles": "Clc1ccc2c(c1)nc1cc(Nc3ccccc3)c(=NC3CCCCC3)cc-1n2-c1ccccc1", "strain": "6841 ATCC", "value": "10 µg/mL"}
{"smiles": "CCn1cc(C(=O)O)c(=O)c2cc(F)c(-c3csc(N)n3)cc21", "value": "3.12 µg/mL"}
{"smiles": "CCC(C)Sc1ccnc(C(N)=S)c1", "strain": "1021", "value": "500 µM"}
{"smiles": "NC(=O)c1ncc(C(N)=S)nc1NC1CCCCCC1", "strain": "1021", "value": ">100 µg/mL"}
{"smiles": "N/C(=N/N=C/c1ccccc1)c1ccccn1", "value": "256 µg/mL"}
{"smiles": "CO[C@@]1(NC(=O)Cc2cccs2)C(=O)N2C(C(=O)O)=C(COC(N)=O)CS[C@@H]21", "strain": "1047", "value": "12.5 µg/mL"}
{"smiles": "NC(=O)c1ncc(C(N)=S)nc1Nc1ccccc1", "strain": "1021", "value": "100 µg/mL"}
{"smiles": "CC(C)(C)Sc1ccnc(C(N)=S)c1", "strain": "1021", "value": "2000 µM"}
{"smiles": "N/C(=N\\N=C1CCCCCCCCCCC1)c1ccccn1", "strain": "NCTC 10394", "value": ">50 µg/mL"}
{"smiles": "CCn1cc(C(=O)O)c(=O)c2ccc(-c3csc(-c4ccccc4)n3)cc21", "value": "1.6 µg/mL"}
{"smiles": "COc1ccccc1/C=N/N=C(/N)c1ccccn1", "value": "256 µg/mL"}
{"smiles": "N/C(=N\\N=C\\Cc1ccc[nH]1)c1ccccn1", "strain": "NCTC 10394", "value": ">50 µg/mL"}
{"smiles": "CCn1cc(C(=O)O)c(=O)c2cc(F)c(-c3csc(N(C)C)n3)cc21", "value": "12.5 µg/mL"}
{"smiles": "CCCNc1nc(C(N)=S)cnc1C(N)=O", "strain": "1021", "value": ">100 µg/mL"}
{"smiles": "CCn1cc(C(=O)O)c(=O)c2cc(Cl)c(C3SCC(C)N3C)cc21", "value": "25 µg/mL"}
{"smiles": "CCSc1ccnc(C(N)=S)c1", "strain": "1021", "value": "500 µM"}
{"smiles": "C/C=C/Nc1nc(C(N)=S)cnc1C(N)=O", "strain": "1021", "value": ">100 µg/mL"}
{"smiles": "CCn1cc(C(=O)O)c(=O)c2cc(F)c(-c3nc(C)cs3)cc21", "value": "12.5 µg/mL"}
{"smiles": "CCCCCCCCSc1ccnc(C(N)=S)c1", "strain": "1021", "value": "125 µM"}
{"smiles": "CCn1cc(C(=O)O)c(=O)c2cc(F)c(C3SC(C)C(C)N3C)cc21", "value": "50 µg/mL"}
{"smiles": "CO[C@@]1(NC(=O)CCCC(N)C(=O)O)C(=O)N2C(C(=O)O)=C(COC(C)=O)CSC21", "strain": "914-8", "value": "100 µg/mL"}
{"smiles": "N/C(=N\\N=C\\c1ccc(Cl)c(Cl)c1)c1ccccn1", "value": "256 µg/mL"}
{"smiles": "CCn1cc(C(=O)O)c(=O)c2ccc(-c3csc(-c4ccncc4)n3)cc21", "value": "1.6 µg/mL"}
{"smiles": "CCCCCCCCCCCCCCCCSc1ccnc(C(N)=S)c1", "strain": "1021", "value": "2000 µM"}
{"smiles": "CCn1cc(C(=O)O)c(=O)c2cc(Cl)c(-c3nccs3)cc21", "value": "12.5 µg/mL"}
{"smiles": "CCn1cc(C(=O)O)c(=O)c2cc(F)c(-c3cscn3)cc21", "value": "25 µg/mL"}
{"smiles": "CO[C@@]1(NC(=O)C(C(=O)O)c2ccc(O)cc2)C(=O)N2C(C(=O)O)=C(CSc3nnnn3C)CO[C@@H]21", "strain": "1261", "value": "25 µg/mL"}
{"smiles": "CCn1cc(C(=O)O)c(=O)c2cc(Cl)c(-c3nc(-c4ccccc4)cs3)cc21", "value": "6.25 µg/mL"}
{"smiles": "CCn1cc(C(=O)O)c(=O)c2ccc(-c3csc(N(C)C)n3)cc21", "value": "12.5 µg/mL"}
{"smiles": "CO[C@@]1(NC(=O)C2SC(=C(C(N)=O)C(=O)[O-])S2)C(=O)N2C(C(=O)[O-])=C(CSc3nnnn3C)CS[C@@H]21", "strain": "AO5", "value": "25 µg/mL"}
{"smiles": "COc1ccc(OC)c(/C=N/N=C(\\N)c2ccccn2)c1", "value": "256 µg/mL"}